# Data taken from PubChem BioAssay AID540256 (National Center for Advancing Translational Sciences (NCATS), 2011).
# The entries are a selection whose mix differs from that of the whole data set. Inconclusive results are not listed. The source made the active and inactive calls. Calls come from the whole dose curve; tested in HEK293 cells.
# Experiment: qHTS for Inhibitors of binding or entry into cells for Lassa Virus; note: nearly all actives have a fitted effect of over 50% in size
# Details: Lassa virus pseudotype entry inhibition, cell reporter
# Potency is the fitted concentration of half-maximal effect.
row,Compound,Potency
1,CC(O)C1C=CC=CC(=O)OC2CC3OC4C5OC5(C)C(O)CC4(COC(=O)C(O)C(C)CCO1)C2(C)C31CO1 (stereo not drawn),active: 0.126 µM
2,CC1=CC2OC3CC4OC(=O)C=CC=CC(C(C)O)OCC(O)C5(C)OC5C(=O)OCC2(CC1O)C4(C)C31CO1 (stereo not drawn),active: 0.224 µM
3,CC(=O)O[C@H]1C[C@@H]2OC3C=C(C)CCC3(C)[C@@]1(C)[C@@]21CO1 (stereo partly drawn),active: 0.631 µM
